Sequence variants of PSTVd loop 6 after infection

The measurements come from Wu et al. 2024 (doi:10.1371/journal.ppat.1012142).

The pool varies loop 6 of the PSTVd intermediate strain in the pattern UNNNCGNNNG; wild type is UGACCGCGAG (upper and lower strand joined, each 5' to 3', the first 5 letters being the upper strand, closing pairs included).

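Three N. benthamiana plants were inoculated with the whole mutant pool. Progeny were sequenced from the inoculated region (day 5), the margin of the inoculated leaf (day 10) and systemic leaves (day 12).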

Values are reads per thousand in the sample; higher means more abundant, 0 means not found. Each site shows the three plants. "Pool" is the share in the plasmid pool used as inoculum, on the same scale. The inoculated region was read from the minus strand, the other sites from the plus strand. IR is the inoculated region, LM the leaf margin, Sys the systemic leaves.

| # | sequence | pool | IR | LM | Sys |
|---|---|---|---|---|---|
| 1 | GGACCGCCGG | 0.0131 | 0.0348 / 0.0180 / 0.0184 | 0 / 0 / 0 | 0 / 0 / 0 |
| 2 | UAAACGCUAG | 0.131 | 0.695 / 0.683 / 0.424 | 0.0552 / 0.0504 / 0.116 | 0 / 0.0606 / 0.0410 |
| 3 | UAAUCGCAAG | 0.248 | 0.817 / 0.790 / 0.775 | 0 / 0.101 / 0.116 | 0 / 0 / 0 |
| 4 | UAAUCGCGAG | 0.261 | 0.156 / 0.126 / 0.240 | 0.166 / 0.706 / 0.0232 | 0 / 0 / 0.103 |
| 5 | UACCCGUGAG | 0.157 | 0.104 / 0.108 / 0.0738 | 0 / 0 / 0.0232 | 0 / 0 / 0 |
| 6 | UACGCGCGUG | 0.235 | 0.0695 / 0.0719 / 0.0553 | 0 / 0 / 0 | 0 / 0 / 0 |
| 7 | UAGGCGAAAG | 0.235 | 0.191 / 0.0719 / 0.166 | 0 / 0 / 0.0232 | 0 / 0 / 0 |
| 8 | UAGUCGACCG | 0.196 | 0.122 / 0.0359 / 0.0922 | 0 / 0 / 0.0464 | 0 / 0 / 0 |
| 9 | UAGUCGCAAG | 0.0915 | 0.139 / 0.0719 / 0.221 | 0 / 0 / 0.0232 | 0 / 0 / 0 |
| 10 | UAUUCGAUAG | 0.170 | 0.139 / 0.108 / 0.111 | 0.0276 / 0 / 0.139 | 0 / 0 / 0 |
| 11 | UCAACGAGAG | 0.288 | 0.765 / 0.736 / 0.277 | 0.0552 / 0.0504 / 0.0928 | 0 / 0 / 0 |
| 12 | UCAGCGGGGG | 0.105 | 0.104 / 0 / 0.0553 | 0.0276 / 0 / 0.0232 | 0 / 0 / 0 |
| 13 | UCAUCGAGCG | 0.183 | 0.156 / 0.0539 / 0.0922 | 0 / 0 / 0.0232 | 0 / 0 / 0 |
| 14 | UCAUCGCAGG | 0.170 | 0.122 / 0.126 / 0.0553 | 0 / 0 / 0.0232 | 0 / 0 / 0 |
| 15 | UCCGCGCGAG | 0.222 | 0.122 / 0.0898 / 0.0553 | 0.0276 / 0.0252 / 0 | 0.0359 / 0 / 0.0205 |
| 16 | UCGCCGCUAG | 0.144 | 0.139 / 0.0180 / 0.111 | 0 / 0 / 0 | 0 / 0 / 0 |
| 17 | UCGGCGGGCG | 0.170 | 0.0521 / 0.0359 / 0.0922 | 0 / 0 / 0 | 0 / 0 / 0 |
| 18 | UCGUCGCCCG | 0.471 | 0.104 / 0.126 / 0.0553 | 0 / 0 / 0.0232 | 0 / 0 / 0 |
| 19 | UCGUCGCUUG | 0.144 | 0.0869 / 0.0898 / 0.111 | 0.0276 / 0 / 0.0464 | 0 / 0 / 0 |
| 20 | UCUACGGUAG | 0.222 | 0.0695 / 0.0539 / 0.0553 | 0.166 / 0 / 0 | 0 / 0 / 0 |
| 21 | UCUACGGUCG | 0.340 | 0.122 / 0.0898 / 0.0738 | 0 / 0 / 0.0232 | 0 / 0 / 0 |
| 22 | UCUCCGAUAG | 0.327 | 0.261 / 0.108 / 0.148 | 0 / 0 / 0.232 | 0 / 0 / 0 |
| 23 | UCUGCGGAUG | 0.196 | 0.0521 / 0.0898 / 0.184 | 0.0276 / 0 / 0 | 0 / 0 / 0 |
| 24 | UCUUCGUGUG | 0.275 | 0.104 / 0.162 / 0.0922 | 0.0276 / 0 / 0.0232 | 0 / 0 / 0 |
| 25 | UGAGCUACGG | 0.0131 | 0 / 0 / 0 | 0 / 0 / 0 | 0 / 0 / 0 |
| 26 | UGCACGAGUG | 0.222 | 0.0174 / 0.0539 / 0.0738 | 0 / 0 / 0 | 0 / 0 / 0 |
| 27 | UGCACGGGUG | 0.235 | 0.156 / 0.108 / 0.0738 | 0 / 0 / 0.0232 | 0 / 0 / 0 |
| 28 | UGCUCGAACG | 0.144 | 0.0521 / 0.108 / 0.129 | 0 / 0 / 0 | 0 / 0 / 0 |
| 29 | UGCUCGCACG | 0.131 | 0.104 / 0.0539 / 0.0553 | 0 / 0 / 0.0232 | 0 / 0 / 0 |
| 30 | UGGCCGCUCG | 0.196 | 0.139 / 0.0719 / 0.184 | 0 / 0 / 0 | 0 / 0 / 0 |
| 31 | UGGGCGAAGG | 0.0784 | 0.0869 / 0.0898 / 0.0369 | 0 / 0 / 0.0232 | 0 / 0 / 0 |
| 32 | UGGUCGAACG | 0.196 | 0.104 / 0.108 / 0.111 | 0 / 0 / 0 | 0 / 0 / 0 |
| 33 | UGUGCGCGGG | 0.288 | 0.0695 / 0.144 / 0.0738 | 0 / 0 / 0 | 0 / 0 / 0 |
| 34 | UGUGCGCUCG | 0.222 | 0.156 / 0.0898 / 0.0369 | 0 / 0 / 0 | 0 / 0 / 0 |
| 35 | UGUGCUGCAG | 0.0131 | 0 / 0 / 0 | 0 / 0 / 0 | 0 / 0 / 0 |
| 36 | UUAUCGGAUG | 0.327 | 0.209 / 0.126 / 0.0553 | 0.0276 / 0 / 0 | 0 / 0 / 0 |
| 37 | UUAUCGGUGG | 0.157 | 0.174 / 0.0539 / 0.0738 | 0 / 0 / 0.0232 | 0 / 0 / 0 |
| 38 | UUCUCGGGCG | 0.144 | 0.0695 / 0.0719 / 0.0553 | 0 / 0 / 0 | 0 / 0 / 0 |
| 39 | UUGACGAAAG | 0.288 | 0.0695 / 0.0898 / 0.129 | 0 / 0 / 0 | 0 / 0 / 0 |
| 40 | UUGACGCCUG | 0.366 | 0.261 / 0.162 / 0.0369 | 0 / 0.0504 / 0.0232 | 0.0180 / 0 / 0 |
| 41 | UUGCCGAACG | 0.575 | 0.122 / 0.0719 / 0.111 | 0.0276 / 0 / 0 | 0 / 0 / 0 |
| 42 | UUGGCGACAG | 0.366 | 0.0521 / 0.144 / 0.111 | 0 / 0 / 0 | 0 / 0 / 0 |
| 43 | UUGUCGCGAG | 0.327 | 0.313 / 0.305 / 0.166 | 0.0552 / 1.21 / 0.0464 | 0.0539 / 0 / 0.0615 |
| 44 | UUUCCGACUG | 0.288 | 0.122 / 0.162 / 0.111 | 0 / 0 / 0.0232 | 0 / 0 / 0 |
| 45 | UUUCCGCCGG | 0.248 | 0.122 / 0.144 / 0.0922 | 0 / 0 / 0.0928 | 0 / 0 / 0 |
| 46 | UUUCCGGAGG | 0.261 | 0.156 / 0.126 / 0.0922 | 0 / 0 / 0.0696 | 0 / 0 / 0 |

The opening 6 entries, copied out:

| sequence | pool | IR | LM | Sys |
|---|---|---|---|---|
| GGACCGCCGG | 0.0131 | 0.0348 / 0.0180 / 0.0184 | 0 / 0 / 0 | 0 / 0 / 0 |
| UAAACGCUAG | 0.131 | 0.695 / 0.683 / 0.424 | 0.0552 / 0.0504 / 0.116 | 0 / 0.0606 / 0.0410 |
| UAAUCGCAAG | 0.248 | 0.817 / 0.790 / 0.775 | 0 / 0.101 / 0.116 | 0 / 0 / 0 |
| UAAUCGCGAG | 0.261 | 0.156 / 0.126 / 0.240 | 0.166 / 0.706 / 0.0232 | 0 / 0 / 0.103 |
| UACCCGUGAG | 0.157 | 0.104 / 0.108 / 0.0738 | 0 / 0 / 0.0232 | 0 / 0 / 0 |
| UACGCGCGUG | 0.235 | 0.0695 / 0.0719 / 0.0553 | 0 / 0 / 0 | 0 / 0 / 0 |

Sequences that differ at fixed positions probably stem from PCR or sequencing errors, and defective variants can be carried along by functional ones. Wild type was 20.7 per thousand in the pool and the most common sequence in every sample (inoculated region 195, 198, 203; leaf margin 629, 591, 734; systemic leaves 942, 870, 868). Samples held 36,220 to 57,551 reads, so the smallest values rest on one or two reads.